# Plain letter strings leave the end groups untold.
# Test: peptide made by a vendor (Fmoc solid-phase peptide synthesis)
# Details: whole synthesis, reverse-phase high-performance liquid chromatography and mass spectrometry
sequence,measurement,value
LLGDFFRKSKEKIGKEFKRIVQRIKDFLRNLVPRTES,final HPLC purity,99%

# — publication PMC10525135 (Antibiotics, 2023)
